{"source": "PubChem BioAssay AID1259414, Drosophila RNAi Screening Center – 2018", "aim": "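Genome-wide screen for host control of endosymbiont load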 (primary screen)", "cells": "Drosophila JW18 cells infected with Wolbachia", "reagent": "long dsRNA against Drosophila genes, 0.25 µg dsRNA per well of a 384-well plate", "time to read-out": "5 days", "conditions": "cells persistently infected with Wolbachia before knock-down; no added drug", "measured": "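Automated imaging of bacterial rRNA staining divided by host cell count, reported as plate-normalised robust z-score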", "scale": "Wolbachia per cell robust z: higher = more Wolbachia per host cell than the plate typical", "hit rule": "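Active if absolute robust z reaches 1.5 in two or more of three replicates, leaving out multi- or no-target dsRNAs, genes unexpressed in JW18 and A1 wells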", "note": "The deposit covers about 24,000 reagents; this is an unselected part of those with a known target gene and a result. In the full data, about 1,210 (5%) were called active. 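Inactive calls also include excluded dsRNAs with several or no targets, genes unexpressed in JW18, and well A1, regardless of score.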 A number with no mark means an inactive call."}
{"gene knocked down":"CG13039 (GeneID 39805)","amplicon":"DRSC09920","Wolbachia per cell robust z, rep 1":-0.232,"Wolbachia per cell robust z, rep 2":-0.164,"Wolbachia per cell robust z, rep 3":-0.716}
{"gene knocked down":"Snmp1 (GeneID 42514)","amplicon":"DRSC16168","Wolbachia per cell robust z, rep 1":"0.64 (active)","Wolbachia per cell robust z, rep 2":-4.27,"Wolbachia per cell robust z, rep 3":-5.3}
{"gene knocked down":"Coq7 (GeneID 44007)","amplicon":"DRSC29047","Wolbachia per cell robust z, rep 1":"-2.22 (active)","Wolbachia per cell robust z, rep 2":-0.594,"Wolbachia per cell robust z, rep 3":-6.86}
{"gene knocked down":"CG3632 (GeneID 32589)","amplicon":"DRSC19871","Wolbachia per cell robust z, rep 1":"-1.91 (active)","Wolbachia per cell robust z, rep 2":-10.1,"Wolbachia per cell robust z, rep 3":0.516}
{"gene knocked down":"bisc (GeneID 37443)","amplicon":"DRSC04083","Wolbachia per cell robust z, rep 1":0.33,"Wolbachia per cell robust z, rep 2":-4.05,"Wolbachia per cell robust z, rep 3":0.243}
{"gene knocked down":"bisc (GeneID 37443)","amplicon":"DRSC28459","Wolbachia per cell robust z, rep 1":0.338,"Wolbachia per cell robust z, rep 2":0.461,"Wolbachia per cell robust z, rep 3":0.89}
{"gene knocked down":"beat-VI (GeneID 43377)","amplicon":"DRSC14474","Wolbachia per cell robust z, rep 1":-2.48,"Wolbachia per cell robust z, rep 2":-1.25,"Wolbachia per cell robust z, rep 3":0.119}
{"gene knocked down":"beat-VI (GeneID 43377)","amplicon":"DRSC14727","Wolbachia per cell robust z, rep 1":0.25,"Wolbachia per cell robust z, rep 2":-3.73,"Wolbachia per cell robust z, rep 3":-5.3}
{"gene knocked down":"Gmd (GeneID 33716)","amplicon":"DRSC03119","Wolbachia per cell robust z, rep 1":0.784,"Wolbachia per cell robust z, rep 2":-0.883,"Wolbachia per cell robust z, rep 3":-1.51}
{"gene knocked down":"Gmd (GeneID 33716)","amplicon":"DRSC27937","Wolbachia per cell robust z, rep 1":-0.048,"Wolbachia per cell robust z, rep 2":-0.516,"Wolbachia per cell robust z, rep 3":0.286}
{"gene knocked down":"BicC (GeneID 34946)","amplicon":"DRSC02005","Wolbachia per cell robust z, rep 1":0.384,"Wolbachia per cell robust z, rep 2":1.28,"Wolbachia per cell robust z, rep 3":0.779}
{"gene knocked down":"BicC (GeneID 34946)","amplicon":"DRSC29676","Wolbachia per cell robust z, rep 1":-0.0332,"Wolbachia per cell robust z, rep 2":-0.0877,"Wolbachia per cell robust z, rep 3":-0.011}
{"gene knocked down":"comm2 (GeneID 39716)","amplicon":"DRSC10877","Wolbachia per cell robust z, rep 1":-0.51,"Wolbachia per cell robust z, rep 2":0.0481,"Wolbachia per cell robust z, rep 3":-0.436}
{"gene knocked down":"Pi3K92E (GeneID 42446)","amplicon":"DRSC16788","Wolbachia per cell robust z, rep 1":0.016,"Wolbachia per cell robust z, rep 2":1.45,"Wolbachia per cell robust z, rep 3":0.892}
{"gene knocked down":"Pi3K92E (GeneID 42446)","amplicon":"DRSC40730","Wolbachia per cell robust z, rep 1":1.18,"Wolbachia per cell robust z, rep 2":1.26,"Wolbachia per cell robust z, rep 3":0.561}
{"gene knocked down":"CG31051 (GeneID 261634)","amplicon":"DRSC15034","Wolbachia per cell robust z, rep 1":0.457,"Wolbachia per cell robust z, rep 2":-1.04,"Wolbachia per cell robust z, rep 3":-0.974}
{"gene knocked down":"CG13445 (GeneID 39719)","amplicon":"DRSC09992","Wolbachia per cell robust z, rep 1":-2.34,"Wolbachia per cell robust z, rep 2":-0.498,"Wolbachia per cell robust z, rep 3":-0.666}
{"gene knocked down":"CG13445 (GeneID 39719)","amplicon":"DRSC25076","Wolbachia per cell robust z, rep 1":-0.442,"Wolbachia per cell robust z, rep 2":-0.449,"Wolbachia per cell robust z, rep 3":0.594}
{"gene knocked down":"CG13284 (GeneID 35021)","amplicon":"DRSC02256","Wolbachia per cell robust z, rep 1":0.415,"Wolbachia per cell robust z, rep 2":0.265,"Wolbachia per cell robust z, rep 3":-1.39}
{"gene knocked down":"Sdb (GeneID 36573)","amplicon":"DRSC06272","Wolbachia per cell robust z, rep 1":-3.47,"Wolbachia per cell robust z, rep 2":-0.822,"Wolbachia per cell robust z, rep 3":0.243}
{"gene knocked down":"Sdb (GeneID 36573)","amplicon":"DRSC06273","Wolbachia per cell robust z, rep 1":-1.32,"Wolbachia per cell robust z, rep 2":-4.03,"Wolbachia per cell robust z, rep 3":0.589}
{"gene knocked down":"Sdb (GeneID 36573)","amplicon":"DRSC07155","Wolbachia per cell robust z, rep 1":-0.766,"Wolbachia per cell robust z, rep 2":-0.666,"Wolbachia per cell robust z, rep 3":-0.126}
{"gene knocked down":"snsl (GeneID 33696)","amplicon":"DRSC00543","Wolbachia per cell robust z, rep 1":-0.163,"Wolbachia per cell robust z, rep 2":-0.501,"Wolbachia per cell robust z, rep 3":-1.19}
{"gene knocked down":"snsl (GeneID 33696)","amplicon":"DRSC25714","Wolbachia per cell robust z, rep 1":-0.771,"Wolbachia per cell robust z, rep 2":-1.15,"Wolbachia per cell robust z, rep 3":0.277}

3 neighbouring entries already listed:
{"gene knocked down":"CG3632 (GeneID 32589)","amplicon":"DRSC19871","Wolbachia per cell robust z, rep 1":"-1.91 (active)","Wolbachia per cell robust z, rep 2":-10.1,"Wolbachia per cell robust z, rep 3":0.516}
{"gene knocked down":"bisc (GeneID 37443)","amplicon":"DRSC04083","Wolbachia per cell robust z, rep 1":0.33,"Wolbachia per cell robust z, rep 2":-4.05,"Wolbachia per cell robust z, rep 3":0.243}
{"gene knocked down":"bisc (GeneID 37443)","amplicon":"DRSC28459","Wolbachia per cell robust z, rep 1":0.338,"Wolbachia per cell robust z, rep 2":0.461,"Wolbachia per cell robust z, rep 3":0.89}
